Test system: human normal breast cell line MCF-10A
Assay: CCK-8 assay, cytotoxicity to normal breast cells MCF-10A
Settings: read-out: IC50 MCF-10A, CCK-8, 72 h, mean ± SD of three experiments

## O=C(O)c1ccc(N(CCCl)CCCl)cc1
  IC50: > 40 µM
